According to US20120035221A1, “Method of Fungal Pathogen Control in Grass or Turf” (priority 2004, published 2012):

System: grass
Assay: Grass pot trial, dry weight and visual vigor under powdery mildew (Example 3)
Assay type: in vivo
Conditions: 2 WAT harvest, versus untreated, in words
Source text: Six-inch (15-cm) diameter pots were filled to the rim with ProMix® BX potting soil and leveled off. Grass seed (0.5 g) was distributed evenly over the whole mix surface. The seed was watered in very gently. The grass was fertilized once 17 days later with Peters 20-10-20 at 100 ppm. The first cut was done on 11 days later; the grass was allowed to re-grow and cut 26 days later. Cutting was done at 2 in. (5 cm) height, using a round plastic cylinder that fit over the pot. The cut was made with hedge sheers and finished with scissors. Treatments were applied one day later using a volume of 20 ml per pot, followed with 117 ml of water/pot. The grass clippings were harvested an.d dried for dry weight determination 2 weeks after treatment (“WAT”) and 4 WAT. The grass was rated visually for vigor 8 WAT, using a 1 to 5 scale, before harvesting at the soil line. Dry weight and vigor data were subjected to analysis of variance (Fisher's Protected LSD, P=0.05).
The grass had germinated well within 30 days. Powdery mildew was noticed on some plants at 43 days after seeding, and became widespread in the plot. The powdery mildew coating appeared to grow more densely on the untreated plants. […] The invasion of the powdery mildew prevented the assessment of imidacloprid in the absence of pest pressure but it was serendipitously discovered that imidacloprid could have an effect on disease resistance in turf.

O=[N+]([O-])NC1=NCCN1Cc1ccc(Cl)nc1 [imidacloprid]
dry weights of grass clippings: significantly improved in two of the imidacloprid treatments
